Test results from patent publication US5180831A (priority 1990, dated 1993).

Tests used:
[1] = Intramuscular pretreatment against GD in mice, 24 h survival
[2] = Oral pretreatment against GD in mice, 24 h survival; conditions: for % survival: oral

## CN(C)C(=O)Oc1ccc(C=NO)[n+](C)c1
[1]; 15 min, 37 μmol/kg
  % survival: 90%
[1]; 60 min, 9.0 μmol/kg
  % survival: 90%

## CN(C)C(=O)Oc1ccc[n+](C)c1C=NNC(N)=O
[1]; 15 min, 0.2 μmol/kg
  % survival: 50%
[1]; 15 min, 0.6 μmol/kg
  % survival: 80%
[1]; 15 min, 2.3 μmol/kg
  % survival: 80%
[1]; 60 min, 0.2 μmol/kg
  % survival: 90%
[1]; 60 min, 0.6 μmol/kg
  % survival: 100%
[1]; 60 min, 2.3 μmol/kg
  % survival: 80%

## CN(C)C(=O)Oc1ccc[n+](C)c1C=NNC(=O)Nc1ccccc1
[1]; 15 min, 0.65 μmol/kg
  % survival: 90%
[1]; 15 min, 2.7 μmol/kg
  % survival: 90%
[1]; 15 min, 11 μmol/kg
  % survival: 40%
[2]; 30 min, 10 μmol/kg
  % survival: 70%
[2]; 120 min, 10 μmol/kg
  % survival: 100%

## CN(C)C(=O)Oc1ccc[n+](C)c1 [Pyr, Pyridostigmine]
[2]; pyridostigmine alone, 120 min prior to challenge
  survival in words: no survival

## COc1ccc(CON=Cc2c(OC(=O)N(C)C)ccc[n+]2C)cc1
[2]; 120 min, 2.2 μmol/kg
  % survival: 100%

## C[n+]1ccccc1C=NNC(=O)C[n+]1ccccc1 [Compound 5b, 2-(1-Methyl-2-pyridinemethylene)-1-[2-(1-pyridinium)acetyl]hydrazine dichloride]
[1]; 60 min, 96 μmol/kg
  % survival: 100%
